Assay results from article PMC3488262.

Target: Ler (LEE-encoded regulator), residues 3-116 (not stated (enterohemorrhagic or enteropathogenic Escherichia coli))
Assay: […] (10 mM Tris, 100 mM NaCl, 7 mM MgCl2 pH 7.5), […] (2 ng/ul), […]

Ler (LEE-encoded regulator), residues 3-116 (domain or fragment)
stoichiometry N (ratio to the Ler monomer (14.3 kDa)): 4.7
